Assays:
[1] = target: non-junctional claudins in rat colon mucosa (ex vivo, Ussing chamber) (rat (endogenous in colon tissue)); assay: immunostaining of cells or tissue
[2] = target: claudins in human colon polyps (colorectal adenoma biopsies) (human (endogenous in colon adenoma tissue)); assay: immunostaining of cells or tissue

Alexa Fluor647-conjugated GST-cCPE-SSS (domain or fragment)
cCPE signal relative to DAPI, normalized to cCPE-YL (relative intensity (cCPE-YL = 1)) [1]: 8.51

GST-cCPE-SSS (domain or fragment)
cCPE signal relative to DAPI, normalized to cCPE-YL (relative intensity (cCPE-YL = 1)) [2]: 12.1

Reference: article PMC10385049, “cCPE Fusion Proteins as Molecular Probes to Detect Claudins and Tight Junction Dysregulation in Gastrointestinal Cell Lines, Tissue Explants and Patient-Derived Organoids” (2023)
